Measurements: publication PMC3781045

Target: T1, rZur (ZurPA, Np20) (UniProt Q9HT74)
T1 sequence (looked up): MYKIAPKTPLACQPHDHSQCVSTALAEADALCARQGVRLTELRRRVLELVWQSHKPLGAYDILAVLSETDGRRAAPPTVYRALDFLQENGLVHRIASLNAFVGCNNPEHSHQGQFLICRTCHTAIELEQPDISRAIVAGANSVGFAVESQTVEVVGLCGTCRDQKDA
Experiment: competition with a labelled probe
Settings: 100x unlabeled znuA promoter as specific competitor, 1 uM ZnCl2; 10 mM Tris-HCl pH 8.0, 40 mM KCl, 10 mM MgCl2, 1 mM DTT, 5% glycerol, 1 uM ZnCl2, 0.5 ug salmon sperm DNA; room temperature 30 min; gel at 4 C; recombinant protein; residues 1-167; protein details: N-terminal Strep-tag II; label: 32P (5' end, T4 PNK); probe letters rebuilt from the primers and the genome

“CGGCGAAGCCAGCAGGAACAGGGCGAAGCAGGCGGACAGCAGGGCAAAGGGACGCAGGGTCACGGCGGCACTCACATGAAAGGTGGTTAGCGGGTAATATAATAACGTCTCTACCCTCGAGCGTCGCAGCCCATGTACAAGATTGCGCCCAAGACCCCGCTGGCCTGCCAGCCCCATGACCACAGCCAGTGCGTCAGCA (double strand) [znuA promoter fragment]”: binds.

For at least one entry, the source does not settle the construct or the ends of the probe. At least one verdict rests on a figure or table, not on a statement of the authors. Tags and fusion partners may be left off the protein sequences shown.
